Results reported in patent US12076390 (Dana-Farber, dated 2024).
Positions count from the first letter of the chain named. Several values for one entry are separate records, joined by “and”; a condition that tells them apart may be missing. Identical values can stand only once. Like-named read-outs stand apart in the source and are kept apart here.

Key:
[1] = target: T1, H3-BR07 protein (recombinant HA of H3 A/Brisbane/10/07) (influenza A virus A/Brisbane/10/07 …)
[2] = target: T1, H3-BR07 protein (recombinant HA of H3 …); remark: listed apart in the source
[3] = target: T1, H3-BR07 protein (recombinant HA of H3 …); remark: listed apart in the source
[4] = target: T1, H3-BR07 protein (recombinant HA of H3 …); remark: listed apart in the source
[5] = target: T2, Recombinant full length HA of H3 A/Perth/16/09 (H3-PE09) (influenza A virus A/Perth/16/09 (H3N2))
[6] = target: T2, Recombinant full length HA of H3 …; assay: recombinant HA; footnote says SPR biosensor, methods describe BLI
[7] = target: Recombinant full length HA of H5 A/Indonesia/05/05 (H5-IN05) (influenza A virus A/Indonesia/05/05 (H5)); assay: as above
[8] = target: Recombinant full length HA of H9 A/Hong Kong/1073/99 (H9-HK99) (influenza A virus A/Hong Kong/1073/99 …); assay: as above
[9] = target: Recombinant full length HA of H3 A/Uruguay/716/07 (H3-UY07) (influenza A virus A/Uruguay/716/07 (H3)); assay: as above
[10] = target: Recombinant full length HA of H3 A/Victoria/341/11 (H3-VIC11) (influenza A virus A/Victoria/341/11 (H3)); assay: as above
[11] = target: Recombinant full length HA of H7 A/Anhui/1/13 (H7-AH13) (influenza A virus A/Anhui/1/13 (H7N9)); assay: as above
[12] = target: T3, Recombinant full length HA of H5 A/Vietnam/1203/04 (H5-VN04) (influenza A virus A/Vietnam/1203/04 …)
[13] = target: T3, Recombinant full length HA of H5 …; assay: BLI (Octet RED96), IgG1, recombinant HA

B1: 3I14 Fab (Fab, V domains shown)
VH: QVQLLESGGGVVQPGRSLRLSCAASGFTFSNYGMHWVRQAPGKGLEWVAIISFDGSKKYYANSVKGRSTISRDNSKNTLSLQMNSLGPEDTALYYCAKLPSPYYFDSRFVWVAASAFHFWGQGILVTVSS
VL: NFMLTQPPSASGTPGQRVTISCSGSSSNIGGNTVHWFQQLPGTAPKLLIYTNSLRPSGVPDRFSGSKSGTSASLAISGLQSEDEADYYCAAWDDSLNGQVFGGGTKLTVL
IC50 (read off the curve) [1]: ~5 nM and ~7 nM
IC50 (read off the curve) [2]: ~7 nM
IC50 (read off the curve) [3]: ~4 nM
IC50 (read off the curve) [4]: ~5 nM

B2: 3I14 IgG1 (antibody, V domains shown)
VH: B1 VH
VL: B1 VL
koff [5]: 0.000127 s⁻¹
kon [5]: 64700 M⁻¹ s⁻¹
Kd [6]: 0.26 nM
Kd [7]: 1.05 nM
Kd [8]: 5.23 nM
Kd [9]: 0.18 nM
Kd [10]: 0.33 nM
Kd [11]: 0.67 nM

B3: 3I14 VLD94N IgG1 (antibody, V domains shown)
VH: B1 VH
VL: B1 VL with D94N
koff [12]: 1.26e-05 s⁻¹
kon [12]: 67200 M⁻¹ s⁻¹
koff [13]: 7.74e-05 s⁻¹
kon [13]: 383000 M⁻¹ s⁻¹
